The values below come from article PMC5544767.

Data set [1] has as its target Crp (cAMP receptor protein), His-tagged (UniProt B4EZ60). Briefly: EMSA. The conditions noted are these: 50 uM cAMP, unlabeled fragment competes, EMSA: 150 mM KCl, 10 mM MgCl2, 30 mM Tris-HCl pH 8.0, 50 uM cAMP, room temperature 30 min, recombinant protein, residues 1-210, protein details: His-tag, pET32a(+) (vector fusion not detailed), label: IRDye 700, probe letters rebuilt from the primers and the genome, part of a longer molecule. In general terms: In EMSA bound probe runs differently from free probe, usually more slowly.

Data set [2] has the same target. The data set is described as follows: DNase I footprinting. The conditions noted are these: 50 uM cAMP, 512 nM Crp, poly(dI-dC), footprint: 10 mM Tris-HCl pH 7.5, 0.1 mM EDTA, 5.5 mM MgCl2, 20 ug/ml poly(dI-dC), 0.2 mg/ml BSA, room temperature 30 min, recombinant protein, residues 1-210, protein details: His-tag, pET32a(+) (vector fusion not detailed), label: 5' FAM (T7 primer), probe letters rebuilt from the primers and the genome, part of a longer molecule.

Construct, isoform or probe ends are uncertain for at least one entry.

As to “AGGCTTTTGCTGATTTGACCAAAATCGATAGCTTGGTTAGCACTTTCGGTAGCAATACCACAAGGTGCATCAATAACTTTACCAGTGAAAGTAATAGTACCATCACCTGAAGCCGCTTGAGCAACAGTCGCAGAAAAAGCCATTGATGCAATAGCGAACATCGCTAATTTATTCAATTTCATATTTTTACCTTTATATTTAACGTAGGAATTAAAGCGTTAAAAAATTAACTATGATATATAGTTACACACATTATCCTCATCCCATCCAGAGATGATATTGTTACTTCCATTACTTTTAAAAACTTATGACTATTTAAATTTTTATATAAAATTTAAACTGTATTTATACAGATGATATAAATCATCTAAACACGCAAATAGAATGGAAACGAATCACTATTTTTTAATTTATGTTTTATAATATCTACGACAAGAACTTTTCGATAAAACTCAGACCAGTCAGCATCCAATAATTTTAATATCATATCTAATGTTTCAATATTGATACTTGTTATTCCATTTTCATATCTTGATATTTGTTGCTGACTCACATCAAGTAATTCGCCTAATTGGGCTCCTGTTAGAGATTTACGTA (double strand) [pmpA promoter fragment (EMSA)]”, the binding result in data set [1] (0-2 uM Crp) was “binds”. For “AGGCTTTTGCTGATTTGACCAAAATCGATAGCTTGGTTAGCACTTTCGGTAGCAATACCACAAGGTGCATCAATAACTTTACCAGTGAAAGTAATAGTACCATCACCTGAAGCCGCTTGAGCAACAGTCGCAGAAAAAGCCATTGATGCAATAGCGAACATCGCTAATTTATTCAATTTCATATTTTTACCTTTATATTTAACGTAGGAATTAAAGCGTTAAAAAATTAACTATGATATATAGTTACACACATTATCCTCATCCCATCCAGAGATGATATTGTTACTTCCATTACTTTTAAAAACTTATGACTATTTAAATTTTTATATAAAATTTAAACTGTATTTATACAGATGATATAAATCATCTAAACACGCAAATAGAATGGAAACGAATCACTATTTTTTAATTTATGTTTTATAATATCTACGACAAGAACTTTTCGATAAAACTCAGACCAGTCAGCATCCAATAATTTTAATATCATATCTAATGTTTCAATATTGATACTTGTTATTCCATTTTCATATCTTGATATTTGTTGCTGACTCACATCAAGTAATTCGCCTAATTGGGCTCCTGTTAGAGATTTACGTA (double strand) [pmpA promoter fragment (footprint)]”, in data set [2], the binding result is given as “binds”. Consider “GGGTAGATTCGCTTATTAATTCTCAGCAAGTTTTATTACTAATATTACTTGAATAGTTAATGAACTAATTCCATAATAATGATTATCTTTTTGTGATGTAACTCACATAGTATTTAAATTAGACTACTTTATCCGTTGAATAACTTAATCATTAAGGAGTAAAGTTATCTCGTTAGGATTATTCTTAACGTGATATATTGGCGAGCATTTAAAATCCTTTTTAATTTAAATGTTTTTCTCGCTACTTTTTGAAATGATCGTAATCAAGTAATACAAGGTAGTGTTACTACGAGTCATATTCATAAAATGGGGCCTGGAAATTCAATATACATTTATATTAATTTCCTCGGGATCTTACTTTAAACAAGATCCTCTTTGTTCAATATAATCGGACGGGATGTAAAGAG (double strand) [flhDC promoter fragment]”, for which the binding result in data set [1] (0-0.5 uM Crp) was “binds”.
